Measured values from several laboratories, pooled; numbers as filed in NIAID ChemDB.

All rows: tests in culture; species: Staphylococcus aureus

An empty or dashed field is not shown. a–b is a range or a potency band. A number after MIC or MFC names an inhibition level or a share of isolates. Neighbouring rows are from separate reports.

compound | strain or isolate | measure | result
CCC(C(=O)O)c1ccccc1 |  | MIC | 100 µM
CC(C)(C)n1cc(C(=O)O)c(=O)c2cc(F)c(N3CCN(C4C=CCC4)CC3)cc21 |  | MIC | 0.06 µg/mL
CC[C@H](N)C1CCN(c2c(F)cn3c(=O)c(C(=O)O)cc(C4CC4)c3c2C)C1 | NCTC10649 | MIC | 0.0005 µg/mL
CC(C)c1cc2c(cc1O)[C@@]1(C)CCCC(C)(C)C1CC2 |  | MIC | 8 µg/mL
CN[C@@H]1[C@H](O[C@H]2[C@H](O[C@H]3[C@H](O)[C@@H](O)[C@H](N=C(N)N)[C@@H](O)[C@@H]3N=C(N)N)O[C@@H](C)[C@]2(O)C=O)O[C@@H](CO)[C@H](O)[C@H]1O |  | MIC | 6.25 µg/mL
C[C@@H]1CN(c2c(F)c(N)c3c(=O)c(C(=O)O)cn(C4CC4)c3c2F)C[C@H](C)N1 | 24 strains (ofloxacin-susceptible) | MIC50 | 0.06 µg/mL
O=c1[nH]sc2c(F)cccc12 | ATCC 6538 | MIC | 40 µg/mL
CC(=O)Oc1cc2c(cc1C(C)C)CC[C@H]1C(C)(C)CCC[C@]21C |  | MIC | >32 µg/mL
CO[C@H]1/C=C/O[C@@]2(C)Oc3c(C)c(O)c4c(O)c(c5c(c4c3C2=O)NC2(CCN(CC(C)C)CC2)N=5)=NC(=O)/C(C)=C\C=C\[C@H](C)[C@H](O)[C@@H](C)[C@@H](O)[C@@H](C)[C@H](OC(C)=O)[C@@H]1C | 20 strains (methicillin-susceptible) | MIC50 | 0.016 µg/mL
CC[C@H](NC)C1CCN(c2c(F)cn3c(=O)c(C(=O)O)cc(C4CC4)c3c2C)C1 | 1775 (ciprofloxacin-resistant) | MIC | 0.05 µg/mL
COC(=O)CN1OCC(N)C1=O |  | MIC | >2500 µM
CC1(C)CCC[C@]2(C)c3ccc(O)c(O)c3CC[C@@H]12 |  | MIC | 32 µg/mL
O=c1[nH]sc2ccc(C(F)(F)F)cc12 | ATCC 6538 | MIC | 15 µg/mL
Cc1c(N2C[C@@H]3CCCN[C@H]3C2)c(F)cn2c(=O)c(C(=O)O)cc(C3CC3)c12 | CG55 | MIC | 0.013 µg/mL
CCCCNC(=O)c1ccc(C(F)(F)F)cc1SSc1cc(C(F)(F)F)ccc1C(=O)NCCCC | ATCC 6538 | MIC | 20 µg/mL
CC(=O)OC[C@H]1O[C@@H](Oc2cc3c(cc2C(C)C)CC[C@H]2C(C)(C)CCC[C@]32C)[C@H](OC(C)=O)[C@@H](OC(C)=O)[C@H]1OC(C)=O |  | MIC | >32 µg/mL
NC1CON(Cc2ccc(F)cc2)C1=O |  | MIC | >2500 µM
CC(C)c1c(O)ccc2c1CCC1C(C)(C)CCC[C@]21C |  | MIC | 2 µg/mL
CCCCNC(=O)c1cc(F)ccc1SSc1ccc(F)cc1C(=O)NCCCC | ATCC 6538 | MIC | 50 µg/mL
Cc1c(N2CC[C@H](N)C2)c(F)cn2c(=O)c(C(=O)NCC(=O)O)cc(C3CC3)c12 | NCTC10649 | MIC | 50 µg/mL
CCn1cc(C(=O)O)c(=O)c2cc(F)c(N3CCNCC3)cc21 | 30 strains | MIC50 | 2 µg/mL
C[C@H]1NCc2cc(-c3ccc4c(=O)c(C(=O)O)cn(C5CC5)c4c3OC(F)F)ccc21 | 25 strains (ofloxacin-resistant) | MIC50 | 2 µg/mL
CCCCn1sc2c(C(F)(F)F)cccc2c1=O | ATCC 6538 | MIC | 40 µg/mL
CC(C)CCC[C@H](C)CC(=O)O |  | MIC | 100 µM
Cc1cc(C(=O)O)c(=O)n2cc(F)c(N3CC[C@H](N)C3)c(C)c12 | 1775 (ciprofloxacin-resistant) | MIC | >100 µg/mL
NC(=O)c1cc(F)ccc1SSc1ccc(F)cc1C(N)=O | ATCC 6538 | MIC | 7.5 µg/mL
CC(C)c1cc2c(cc1O[C@@H]1O[C@H](CO)[C@H](O)[C@H](O)[C@H]1O)[C@@]1(C)CCCC(C)(C)[C@@H]1CC2 |  | MIC | >32 µg/mL
C[C@@H](O)[C@H]1C(=O)N2C(C(=O)O)=C(SCCN=CN)C[C@H]12 | 25 strains (methicillin-susceptible) | MIC90 | 0.06 µg/mL
CC(=O)NC[C@H]1CN(c2ccc(N3CCN(C(=O)CO)CC3)c(F)c2)C(=O)O1 | Oxacillin-susceptible | MIC90 | 1–4 µg/mL
CCN1OCC(N)C1=O |  | MIC | >2500 µM
CSCC[C@H](N)C1CCN(c2c(F)cn3c(=O)c(C(=O)O)cc(C4CC4)c3c2C)C1 | NCTC10649 | MIC | 0.005 µg/mL
CCCCCCCCCCCCCCCCCCC(CC)C(=O)O |  | MIC | 100 µM
CO[C@H]1/C=C/O[C@@]2(C)Oc3c(C)c(O)c4c(=O)c(c5oc6cc(N7CCN(CC(C)C)CC7)cc(=O)c6nc5c4c3=C2O)NC(=O)/C(C)=C\C=C\[C@H](C)[C@H](O)[C@@H](C)[C@@H](O)[C@@H](C)[C@H](OC(C)=O)[C@@H]1C | 20 strains (methicillin-susceptible) | MIC90 | 0.016 µg/mL
CC1COc2c(N3CCN(C)CC3)c(F)cc3c(=O)c(C(=O)O)cn1c23 | 20 strains (oxacillin-susceptible) | MIC50 | 0.25 µg/mL
CN1CCN(c2c(F)cc3c(=O)c(C(=O)O)cn4c3c2SCC4)CC1 | 30 strains | MIC50 | 2 µg/mL
NC(=O)c1ccc(C(F)(F)F)cc1SSc1cc(C(F)(F)F)ccc1C(N)=O | ATCC 6538 | MIC | 10 µg/mL
CO/N=C(/C(=O)N[C@@H]1C(=O)N2C(C(=O)O)=C(COC(N)=O)CS[C@H]12)c1ccco1 | 30 strains | MIC50 | 1 µg/mL
COc1c(N2CCNC(C)C2)c(F)cc2c(=O)c(C(=O)O)cn(C3CC3)c12 | 24 strains (ofloxacin-susceptible) | MIC90 | 0.25 µg/mL
CN[C@@H]1[C@@H](O)[C@@H](O[C@@H]2[C@@H](O)[C@H](O[C@H]3O[C@H](CN)CC[C@H]3N)[C@@H](N)C[C@H]2N)OC[C@]1(C)O | ATCC 6538 | MIC | 2.5 µg/mL
CC1(C)CCC[C@]2(C)c3ccccc3CC[C@@H]12 |  | MIC | >32 µg/mL

Repeating the first 4 entries:

compound | strain or isolate | measure | result
CCC(C(=O)O)c1ccccc1 |  | MIC | 100 µM
CC(C)(C)n1cc(C(=O)O)c(=O)c2cc(F)c(N3CCN(C4C=CCC4)CC3)cc21 |  | MIC | 0.06 µg/mL
CC[C@H](N)C1CCN(c2c(F)cn3c(=O)c(C(=O)O)cc(C4CC4)c3c2C)C1 | NCTC10649 | MIC | 0.0005 µg/mL
CC(C)c1cc2c(cc1O)[C@@]1(C)CCCC(C)(C)C1CC2 |  | MIC | 8 µg/mL